Experimental data published in US11000571B2 (priority 2016, dated 2021).

Test system: intracerebral hemorrhage (“ICH”) mouse model
Experiment: Intracerebral hemorrhage (ICH) mouse model, 28-point neurological scale
Assay type: in vivo, C57BL/6J mice
Details: high dose (32 mg/kg); 24 hours

Substance: (Aib)HGGGWGQ(Aib)HGGGWGQ
- sensory response component of 28-point scale: improved at statistically significant levels
